Compound potency records, mixed from different reports. Data source: NIAID ChemDB in PubChem.

Shared fields: toxicity to cultured cells; cell line: DAUDI; endpoint: CC50

CCn: concentration that lowers growth or viability of the cells by n%. Conditions beyond the fields shown may differ between rows.

{"structure": "Nc1nc2c(ncn2[C@H]2C[C@]23C[C@H]3CO)c(=O)[nH]1", "value": ">199 µM"}
{"structure": "COC(=O)C(C)NP(=O)(OC[C@@H]1C/C1=C/n1cc(N)c(=O)[nH]c1=O)Oc1ccccc1", "value": ">100 µM"}
{"structure": "Nc1ncnc2c1ncn2[C@H]1C[C@@]12C[C@H]2CO", "value": "202 µM"}
{"structure": "COC(=O)C(Cc1c[nH]c2ccccc12)NP(=O)(O)OCC1C/C1=C/n1cnc2c(N)ncnc21", "value": "57 µM"}
{"structure": "COC(=O)[C@H](C)NP(=O)(OC[C@H]1C/C1=C/n1cnc2c(OC)nc(N)nc21)Oc1ccccc1", "value": "3.7 µM"}
{"structure": "Nc1nc2c(ncn2/C=C2/CC2(CO)CO)c(=O)[nH]1", "value": "106 µM"}
{"structure": "Nc1ncnc2c1ncn2[C@H]1C[C@@]12C[C@@H]2CO", "value": ">216 µM"}
{"structure": "CCCCCCCCCCCCCCCCCCOCCCOP1(=O)CO[C@@H](Cn2ccc(N)nc2=O)CO1", "value": ">1 µM"}
{"structure": "Nc1nc(N)c2ncn(/C=C3/CC3(CO)CO)c2n1", "value": ">191 µM"}
{"structure": "COC(=O)[C@H](C)NP(=O)(OC[C@H]1C/C1=C/n1cnc2c(=O)[nH]c(N)nc21)Oc1ccccc1", "value": ">103 µM"}
{"structure": "COc1nc(N)nc2c1ncn2/C=C1/CC1(CO)CO", "value": ">108 µM"}
{"structure": "Nc1ccn(C[C@@H](CO)OCP(=O)(O)O)c(=O)n1", "value": ">159 µM"}
{"structure": "COC(=O)[C@H](C)NP(=O)(OCC1C/C1=C\\n1cnc2c(N)ncnc21)Oc1ccccc1", "value": "65 µM"}
{"structure": "CCCCCCCCCCCCOCCCOP(=O)(O)CO[C@H](CO)Cn1ccc(N)nc1=O", "value": "0.6 µM"}
{"structure": "Nc1nc(Cl)c2ncn(/C=C3/C[C@H]3CO)c2n1", "value": ">199 µM"}
{"structure": "Nc1ncnc2c1ncn2[C@H]1C[C@]12C[C@@H]2CO", "value": "15 µM"}
{"structure": "O=C(NCc1ccc(Cl)cc1)c1cn2c(CCN3CCOCC3)cc3cc(CN4CCOCC4)cc(c1=O)c32", "read by": "MTS", "value": "15.9 µM"}
{"structure": "Nc1ncnc2c1ncn2[C@H]1C[C@]12C[C@H]2CO", "value": ">202 µM"}
{"structure": "O[C@@H]1[C@H](O)[C@H](O)CO[C@H]1n1c(Br)nc2cc(Cl)c(Cl)cc21", "value": ">94 µM"}
{"structure": "CCCCCCCCCCCCCCCCCOC[C@H](COP1(=O)CO[C@@H](Cn2ccc(N)nc2=O)CO1)OCc1ccccc1", "value": ">0.9 µM"}
{"structure": "COC(=O)C(C)NP(=O)(OC[C@@H]1C/C1=C\\n1cc(N)c(=O)[nH]c1=O)Oc1ccccc1", "value": ">100 µM"}
{"structure": "COC(=O)[C@H](C)NP(=O)(OCC1C/C1=C/n1cnc2c(NC3CC3)nc(N)nc21)Oc1ccccc1", "value": "97 µM"}
{"structure": "NC[C@H]1C[C@@H](n2cnc3c(N)ncnc32)[C@H](O)[C@@H]1O", "value": "23.6 µg/mL"}
{"structure": "Nc1nc2c(ncn2C/C=C2\\CC2P(=O)(O)O)c(=O)[nH]1", "value": ">300 µM"}
{"structure": "Nc1cn(C=C2C[C@H]2CO)c(=O)[nH]c1=O", "value": ">259 µM"}
{"structure": "CC(C)Nc1nc2cc(Cl)c(Cl)cc2n1[C@H]1O[C@@H](CO)[C@H](O)[C@@H]1O", "value": ">77 µM"}
{"structure": "Nc1nc(N)c2ncn(C=C3CC3CO)c2n1", "value": ">215 µM"}
{"structure": "Cc1cn(C=C2CC2(F)CO)c(=O)[nH]c1=O", "value": ">221 µM"}
{"structure": "Nc1nc(NCc2ccccc2)c2ncn(/C=C3/C[C@@H]3CO)c2n1", "value": ">155 µM"}
{"structure": "Nc1nc2c(ncn2C=C2CC2CO)c(=O)[nH]1", "value": ">214 µM"}

A second listing of 2 rows from above:

COC(=O)C(Cc1c[nH]c2ccccc12)NP(=O)(O)OCC1C/C1=C/n1cnc2c(N)ncnc21 ; value: 57 µM
CCCCCCCCCCCCCCCCCOC[C@H](COP1(=O)CO[C@@H](Cn2ccc(N)nc2=O)CO1)OCc1ccccc1 ; value: >0.9 µM